According to publication PMC3303745, “Elucidation of the Rotavirus NSP4-Caveolin-1 and -Cholesterol Interactions Using Synthetic Peptides” (Journal of Amino Acids, 2012):

Tested on: C-Cav161-178
Assay: Direct fluorescence-binding assay, N-terminal cav-1 peptides with Cy3-C-Cav161-178
Conditions: 100 nM Cy3-C-Cav161-178 titrated with 0–500 nM N-terminal cav-1 peptide
Protocol: A fluorescence-binding assay was utilized to investigate direct binding of the NSP4_112-140 peptide with each of the cav-1 peptides (N-Cav2-20, N-Cav19-40, Cav68-80, and C-Cav). All of the cav-1 peptides directly were labeled with a Cy3 fluorescent dye, using the Cy3 Monoreactive dye pack from Amersham Biosciences according to the manufacturer's protocol. Briefly, each peptide was dissolved in 50 nM phosphate buffer, pH 7.0, at a concentration of 1 mg/mL, and added to a vial containing lyophilized Cy3 dye. The solution gently was mixed and incubated at 25°C for at least 2 h with intermittent mixing. […]
The Cy3 fluorophore was excited at 550 nm and emission spectra were scanned from 560 to 700 nm. Fluorescence emission spectra were obtained at 25°C with a PC1 photon-counting spectrofluorometer with excitation and emission slit widths of 1.0 (ISS, Inc.). Spectra were corrected for background and maximal fluorescence intensities were recorded. Calculation of the dissociation constants (K d) was performed from the titration curves plotted as quenching in Cy3-peptide fluorescence intensity (F 0 − F, where F 0 and F represented the Cy3-cav-1 peptide fluorescence intensities in the absence and presence of NSP4_112-140 or cav-1 peptide, resp., at each titration point) as a function of peptide concentration. […]

SGGKYVDSEGHLYTVPIRE [N-Cav2-20, caveolin-1 N-terminal peptide aa 2–20]
binding to Cy3-C-Cav161-178 (change in fluorescence intensity at 565 nm): no change in fluorescence intensity
